Measurements as given in US9340600B2 (Indiana University Research and Technology Corporation, priority 2012, dated 2016).

Assay: general procedure: Boc solid-phase peptide synthesis; MBHA resin, 100-180 mesh, 1% DVB, loading 0.7-1.0 mmol/g (Midwest Biotech); DEPBT/DIEA single couplings; DIC for acylation
Conditions: whole synthesis, Analytical HPLC, UV 214/220 nm, scale of the general procedure 0.2 mmole

Substance: HaibQGTFTSDYSKYLDERAAQDFVQWLLDGGPSSGAPPPSC-amide
- final HPLC purity: 95%

Substance: HaibQGTFTSDYSKYLDERAAQDFVQWLLDGGPSSGAPPPSK(Dap-BrAcetyl)G-amide
- final HPLC purity: purity=90%+
